Results of unrelated studies side by side (data: NIAID ChemDB).

Shared fields: whole-cell or culture tests; species: Aspergillus niger; endpoint: zone

Zones are inhibition diameters on agar. Rows are shuffled and stem from different studies. An empty or dashed field is not shown.

smiles,strain or isolate,read by,tested at,result
O=c1cc(-c2ccc3c(c2)OCO3)oc2c1ccc1occc12,,agar diffusion,50 µg/disc,16 mm
Cc1nc(C)c(CC(O)c2ccc(Cl)cc2)nc1C,,agar diffusion / agar,10000 µg/mL,0.42 mm
Cc1ccc2nc(Cl)c(CN3CCN(C)CC3)cc2c1,MTCC 281,agar diffusion,200 µg/mL,6.1 mm
CC(C)(C)c1ccc(O)c(C(C)(C)C)c1,,agar diffusion / agar,50000 µg/mL,0.86 mm
O=c1cc(-c2ccccc2)oc2c1c(O)cc1occc12,,agar diffusion,50 µg/disc,11 mm
O=c1c(O)c(-c2ccccc2)oc2ccc(Cl)cc12,,agar diffusion,100 µg/mL,15 mm
Cc1ccc2nc(Cl)c(CNc3cccc(Cl)c3)cc2c1,MTCC 281,agar diffusion,200 µg/mL,12.03 mm
O=c1cc(-c2ccccc2)oc2c1ccc1occc12,,agar diffusion,50 µg/disc,9 mm
O=C1NC(=S)NC(=O)C1=Cc1cn(-c2ccccc2)nc1-c1cc2cc(Br)ccc2oc1=O,,agar diffusion / agar,100 µg,0 mm
Cc1ccc2nc(Cl)c(CNc3ccccc3Cl)cc2c1,MTCC 281,agar diffusion,200 µg/mL,8.13 mm
Cc1ccc(N2NOC(=O)C2S(=O)(=O)Nc2ccc(-n3c(-c4cccc(Cl)c4)nc4ccccc4c3=O)cc2)cc1,MTCC 282,agar diffusion,250 µg/mL,25 mm
O=C1NC(=O)C(=Cc2cn(-c3ccccc3)nc2-c2cc3cc(Cl)ccc3oc2=O)C(=O)N1,,agar diffusion / agar,100 µg,0 mm
C(/C=C/c1ccccc1)=NCCNCCN=C/C=C/c1ccccc1.N#C[S][Hg][S]C#N,,agar diffusion,20000 µg/mL,26 mm
Nc1ccc(S(N)(=O)=O)cc1,,agar,25 µg/mL,24 mm
CC(C)(CN=C/C=C/c1ccccc1[N+](=O)[O-])CN=C/C=C/c1ccccc1[N+](=O)[O-],,agar diffusion,1.25 mg/disc,0.65 mm
O=C1NC(=O)C(=Cc2cn(-c3ccccc3)nc2-c2cc3cc(Br)ccc3oc2=O)C(=O)N1,,agar diffusion / agar,150 µg,20 mm
C(/C=C/c1ccccc1)=NCCNCCN=C/C=C/c1ccccc1.[Cl][Hg][Cl],,agar diffusion,10000 µg/mL,20 mm
Cc1nc(Nc2ccccc2)nc(C)c1Br,,,50 µg/mL,2.1 mm
O=C1NC(=O)C(=Cc2cn(-c3ccccc3)nc2-c2cc3cc(Cl)cc(Cl)c3oc2=O)C(=O)N1,,agar diffusion / agar,100 µg,0 mm
Cc1cc(CBr)nc(Nc2ccccc2)n1,,,50 µg/mL,1.9 mm
O=C1NC(=S)NC(=O)C1=Cc1cn(-c2ccccc2)nc1-c1cc2cc(Br)cc(Br)c2oc1=O,,agar diffusion / agar,150 µg,0 mm
CC1(C)CCCC2(C)OCCC=C12,,agar diffusion / agar,10000 µg/mL,0.63 mm
COc1ccc(-c2oc3ccccc3c(=O)c2OC(C)=O)cc1OC,,agar diffusion,100 µg/mL,13 mm
Cc1nc(Nc2ccccc2)nc2c1C(=N)C(C#N)CN(Cc1ccccc1)C2,,,50 µg/mL,1.02 mm
O=C(O)/C=C/c1ccccc1,,agar diffusion / agar,10000 µg/mL,0.65 mm
CC(=O)Oc1c(-c2ccc(Cl)cc2)oc2ccccc2c1=O,,agar diffusion,100 µg/mL,18 mm
C[C@@H]1O[C@@H](OC[C@H]2O[C@@H](Oc3ccc(-c4oc5cc(O)cc(O)c5c(=O)c4O)cc3)[C@H](O)[C@@H](O)[C@@H]2O)[C@H](O)[C@H](O)[C@H]1O,,agar diffusion / agar,50000 µg/mL,0 mm
Cc1ccc(N2NOC(=O)C2S(=O)(=O)Nc2nc3cc(C)ccc3s2)cc1,MTCC 282,agar diffusion,250 µg/mL,24 mm
Cc1ccc2nc(Cl)c(CN3CCOCC3)cc2c1,MTCC 281,agar diffusion,200 µg/mL,6.25 mm
Cc1ccc(N2NOC(=O)C2S(=O)(=O)Nc2ccc(-n3c(-c4ccc(Cl)cc4)nc4ccccc4c3=O)cc2)cc1,MTCC 282,agar diffusion,250 µg/mL,24 mm
CC(=O)Oc1c(-c2ccc(N(C)C)cc2)oc2ccccc2c1=O,,agar diffusion,100 µg/mL,13 mm
Cc1ccc(N2NOC(=O)C2S(=O)(=O)Nc2ccc(-n3c(-c4ccc([N+](=O)[O-])cc4)nc4ccccc4c3=O)cc2)cc1,MTCC 282,agar diffusion,250 µg/mL,24 mm
CC(=O)Oc1c(-c2ccc(Cl)cc2)oc2ccc(Cl)cc2c1=O,,agar diffusion,100 µg/mL,22 mm
Cc1ccc(N2NOC(=O)C2S(=O)(=O)Nc2nc3ccc(C)cc3s2)cc1,MTCC 282,agar diffusion,250 µg/mL,19 mm
CC(=O)Oc1c(-c2ccco2)oc2ccc(Cl)cc2c1=O,,agar diffusion,100 µg/mL,25 mm
Cc1ccc2nc(Cl)c(CNc3ccccc3C)cc2c1,MTCC 281,agar diffusion,200 µg/mL,8.06 mm
COc1ccc(-c2oc3ccc(Cl)cc3c(=O)c2OC(C)=O)cc1OC,,agar diffusion,100 µg/mL,19 mm
O=C(O)c1cc(O)c(O)c(O)c1,,agar diffusion / agar,10000 µg/mL,0 mm
COc1ccc(-c2csc(NS(=O)(=O)C3C(=O)ONN3c3ccc(C)cc3)n2)cc1,MTCC 282,agar diffusion,250 µg/mL,18 mm
O=c1c(O)c(-c2ccco2)oc2ccccc12,,agar diffusion,100 µg/mL,17 mm
Cc1ccc(N2NOC(=O)C2S(=O)(=O)Nc2ccc(-n3c(-c4c(Cl)cccc4[N+](=O)[O-])nc4ccccc4c3=O)cc2)cc1,MTCC 282,agar diffusion,250 µg/mL,18 mm
O=c1c(O)c(-c2ccc(F)cc2)oc2ccc(Cl)cc12,,agar diffusion,100 µg/mL,17 mm

Repeating the first 6 entries:

O=c1cc(-c2ccc3c(c2)OCO3)oc2c1ccc1occc12 ; read by: agar diffusion ; tested at: 50 µg/disc ; result: 16 mm
Cc1nc(C)c(CC(O)c2ccc(Cl)cc2)nc1C ; read by: agar diffusion / agar ; tested at: 10000 µg/mL ; result: 0.42 mm
Cc1ccc2nc(Cl)c(CN3CCN(C)CC3)cc2c1 ; strain or isolate: MTCC 281 ; read by: agar diffusion ; tested at: 200 µg/mL ; result: 6.1 mm
CC(C)(C)c1ccc(O)c(C(C)(C)C)c1 ; read by: agar diffusion / agar ; tested at: 50000 µg/mL ; result: 0.86 mm
O=c1cc(-c2ccccc2)oc2c1c(O)cc1occc12 ; read by: agar diffusion ; tested at: 50 µg/disc ; result: 11 mm
O=c1c(O)c(-c2ccccc2)oc2ccc(Cl)cc12 ; read by: agar diffusion ; tested at: 100 µg/mL ; result: 15 mm